Measurements: US6197760A (priority 2000, dated 2001)

System: P388 leukemia
Experiment: Evaluation against i.p. implanted P388 leukemia (Table 3)
Assay type: in vivo, murine

CS(=O)(=O)OCCNP(=O)(O)NCCOS(C)(=O)=O
log cell kill: 4.8 log
